Literature values as cited in PMC7401249 (Marine Drugs, 2020).

Key:
[1] = tested on: molluscan NaV channel; conditions: ref [3], cited from earlier work
[2] = tested on: mollusc NaVs; conditions: sites adjacent to the binding sites of CsTx and GPT; ref [4],[5],[6]; cited from earlier work

In the case of `CC[C@H](C)[C@@H]1NC(=O)[C@@H]2CSSC[C@@H]3NC(=O)[C@H](CCSC)NC(=O)[C@H](CCC(=O)O)NC(=O)CNC(=O)[C@H](CO)NC(=O)[C@H](CCC(N)=O)NC(=O)[C@H](CCCCN)NC(=O)[C@@H](NC(=O)[C@@H](N)Cc4c[nH]c5ccccc45)CSSC[C@H](NC(=O)[C@H](CSSC[C@@H](C(=O)N[C@H](C(=O)O)[C@@H](C)O)NC(=O)[C@H](C(C)C)NC(=O)[C@H](CC(C)C)NC(=O)[C@H](C(C)C)NC1=O)NC(=O)[C@H](CC(N)=O)NC(=O)[C@H](CCC(N)=O)NC(=O)[C@H](CC(=O)O)NC(=O)[C@H](CC(C)C)NC(=O)[C@H](CC(C)C)NC(=O)[C@H](CC(N)=O)NC3=O)C(=O)N[C@@H](CC(=O)O)C(=O)NCC(=O)N[C@@H](Cc1ccc(O)cc1)C(=O)N2`, the “effect on inactivation of molluscan NaV current at 0.5 µM” value ([1]; 0.5 µM) is given as “slow inactivation of molluscan NaV current”, the “effect on NaV channel inactivation in molluscs” value [1] is given as “potently slow NaV channel inactivation” and the “binding to mollusc NaVs” value [2] is given as “binds”.
